Source: ChEMBL document CHEMBL3988442, “University of Dundee, Small-Polar-MMV Screening Library” (2021).

Mtb glucose medium: 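Growth of Mycobacterium tuberculosis over 3 days (7H9 medium with glucose and tyloxapol); the read-out is not stated. Tested at 500 µM. Direction is inferred from retests: higher values go with more growth inhibition. Size under these conditions: about 18,000 compounds, about 1,400 of them at 50% or above in at least one test.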
Mtb cholesterol medium: 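Whole-cell growth test on Mycobacterium tuberculosis, read after 4 days in a medium based on cholesterol and the lipid DPPC; the read-out is not stated. Compounds at 500 µM. The record gives no direction; compounds that gave an IC50 in retests scored well above the rest, so higher reads as more growth inhibition. Size under these conditions: about 18,000 compounds, about 900 of them at 50% or above in at least one test.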

Values are the deposited “Percent Effect”, in %. The record does not define 0% and 100%; most values in the screen are far below 50% and negative numbers occur (in some assays of this library far below -100). The entries come from a sample that favours strong results. A dash means the value is not listed here; it may have been measured.

| compound | Mtb glucose medium | Mtb cholesterol medium |
|---|---|---|
| `O=C(Nc1cccc(CO)n1)Nc1ccccc1Cl` | 61.65 | - |
| `Cn1ccnc1N1CCN(C(=O)C2=CCCCO2)CC1` | - | -2.131 |
| `CCn1ncnc1C(NC(=O)CSC)C1CC1` (centres undefined) | -0.6479 | - |
| `Cc1nc(NC(=O)CNC(=O)c2ccoc2)sc1C` | - | -11.66 |
| `COCCNC(=O)N1CCCN(C(=O)C(C)(C)C)CC1` | - | 11.81 |
| `O=C1CN(C(=O)CCC(=O)c2ccc(Cl)cc2)CCN1` | 1.21 | - |
| `CC(C)(C)c1nc(CN)no1` | -7.298 | - |
| `Cn1c(CCN)nc2c(F)cccc21` | 14.11 | - |
| `CCC(C)(C)NC(=O)CNc1ccc2c(c1)OCCO2` | 83.92 | 83.54 |
| `CNCCCC(=O)Nc1cccc2c1OCCO2` | 13.97 | - |
| `CC1CCN(C(=O)COc2ncccn2)CC1` | - | 26.82 |
| `O=C(NC1CC1)N1CCSCC1CCO` (centres undefined) | -3.239 | - |
| `Cc1n[nH]c(SCC(=O)N2CCc3ccccc32)n1` | 9.62 | - |
| `Cc1nc(Cn2cc(S(=O)(=O)N(C)C)ccc2=O)cs1` | 58.36 | - |
| `CCn1ccnc1CN(C)CC1CCN(CCO)CC1` | 26.93 | - |
| `CCCN1CC(C(=O)NCc2cccnc2)CC1=O` (centres undefined) | -13.13 | - |
| `COc1cc(Br)c(CN)cc1OC` | 13.43 | 4.522 |
| `CN1C(=O)C[C@H](CN)[C@H]1c1cnn(C)c1` | 9.961 | - |
| `COC(=O)CNc1ccccc1N1CCC(O)CC1` | - | -4.922 |
| `CCCNC(=O)c1cnn(C)c1-n1cccc1` | - | -22.41 |
| `COCCNc1nc(-c2ccc(O)cc2O)cs1` | 49.13 | 36.25 |
| `COc1ccccc1NC(=O)CNCC(C)C` | - | 3.987 |
| `O=C(NCC1(CO)COC1)C1=Cc2ccccc2OC1` | -4.931 | -12.29 |
| `CN1CCCN(C(=O)c2ccco2)c2ccccc21` | 76.44 | 65.22 |
| `CCNC(=O)CN(CC)c1cccc(CO)c1` | - | -9.986 |
| `NCCC1(O)CNC1` | -21.56 | - |
| `Cc1cccc(OCC(O)CN)c1` (centres undefined) | 55.11 | 29.65 |
| `COCC(=O)Nc1ccc(C(=O)c2nccn2C)cc1` | 49.47 | - |
| `CN1CCCC(CN2CCN(c3nc[nH]n3)CC2)C1` (centres undefined) | - | -20.78 |
| `COc1ccccc1C(C)NC(=O)Cn1cc(C)cn1` (centres undefined) | 51.09 | - |
| `COc1cc(F)cc(NC(=O)N2CCCC2)c1` | - | 1.049 |
| `c1ccc2ncc(N3CCNCC3)cc2c1` | 35.08 | - |
| `CN(C)C(CNC(=O)NCc1cc[nH]n1)c1ccsc1` (centres undefined) | 8.012 | - |
| `O=C(NC1CCN(C2CCOCC2)CC1)c1ccc[nH]1` | - | 1.504 |
| `COCC(O)CNc1c(C)c(C)nc2ccccc12` (centres undefined) | -41.23 | - |
| `CN1CN(Cc2ccc(Cl)o2)CC1=O` | 84.07 | - |
| `NS(=O)(=O)CCNC(=O)CCc1ccc(Br)cc1F` | 30.51 | -2.481 |
| `CCC(O)CCNS(=O)(=O)c1cnc2ccccc2c1` (centres undefined) | - | -3.772 |
| `Nc1c(NCc2ccncc2)ncnc1-n1cccn1` | 36.46 | - |
| `NCc1ccc(C(=O)Nc2ccncc2)cc1` | 21.12 | - |
| `Cc1nc(CN2[C@@H]3CC[C@H]2CNC(=O)C3)c[nH]1` | - | 4.825 |
| `Cc1cccn(CC(=O)NCc2cccs2)c1=O` | 2.294 | - |
| `CC(CN)c1nncn1C` (centres undefined) | - | -3.399 |
| `CNS(=O)(=O)c1ccc(NCCn2ccnc2)c(F)c1` | -8.272 | - |
| `CN(C(=O)COc1cccc(C#N)c1)C1CC1` | -6.297 | - |
| `COCCNC(=O)C1CC(c2ccc(Cl)c(Cl)c2)=NO1` (centres undefined) | - | 0.2661 |
| `CNCC(=O)N1CCCC(OCc2ccccn2)C1` (centres undefined) | -3.249 | - |
| `CCN1CCCN(C(=O)Nc2ccc(C)cc2)CC1` | 12.83 | - |
| `CCC1Oc2c(Cl)cccc2NC1=O` (centres undefined) | - | 54.82 |
| `COC(=O)c1ccc2c(c1)CCCCC2=O` | -11.42 | - |
| `O=C(Cn1ccnc1)Nc1ccc(F)cc1` | -0.03455 | -14.54 |
| `O=C(NCc1cccnc1)NC1CCCC1` | - | 0.2058 |
| `CNS(=O)(=O)c1ccc2c(c1)oc(=O)n2C` | 2.01 | - |
| `COCC(CN)c1ccc(Cl)cc1` (centres undefined) | 2.301 | - |
| `CC(C#N)CN(C)c1ncnc2c1cnn2CCO` (centres undefined) | - | -7.782 |
| `OCCNC1CCOCC1` | 2.458 | - |
| `CC(O)CCc1ccc2c(c1)OCO2` (centres undefined) | 29.92 | 48.59 |
| `COc1ccc2c(c1)NC(=O)C2O` (centres undefined) | 9.805 | - |
| `Cc1cc(S(=O)(=O)N2CCCC2CN)sc1C` (centres undefined) | 53.38 | 22.88 |
| `N#CCC(=O)NCCNC(=O)c1ccccc1` | -11.39 | - |
| `COCCN1CCCN(c2nccc(C)n2)CC1=O` | 18.95 | - |
| `CC(C)(C)OC(=O)N1CCN(c2ccc(N)nc2)CC1` | 41.7 | - |
| `OC1(CNCC2(O)CCCC2)CCCC1` | -1.265 | - |
| `Cc1cccc(NCC2CCCCN2)n1` (centres undefined) | 14.2 | - |
| `c1ccc(CSc2nnc(C3CC3)[nH]2)nc1` | 26.7 | - |
| `CNC1CCCN(Cc2noc(C)n2)C1` (centres undefined) | 7.886 | - |
| `CC(C)(C)OC(=O)N[C@@H]1[C@@H]2CNC[C@H]1CS(=O)(=O)C2` | -9.878 | - |
| `N#CCCCSc1nnc(N)s1` | - | 45.92 |
| `CCc1ccc(CN2C[C@@H]3CCC[C@H](C2)C(=O)N3)nc1` | 3.999 | - |
| `COCCN(Cc1ccco1)S(=O)(=O)CCOC` | 12.21 | -17.95 |
| `CN(CC(=O)N1CCNC(=O)C1)Cc1csc(Br)c1` | 27.2 | - |
| `CC1=CS(=O)(=O)c2c(F)cccc21` | - | -5.629 |
| `CC(C)(C)OC(=O)CN(CCCO)Cc1cccnc1` | - | 20.43 |
| `CCN1CCCN(C(=O)c2ccc(C)c(OC)c2)CC1` | - | 10.06 |
| `CC(CNC(=O)c1ccncc1)c1ccccc1` (centres undefined) | 62.82 | 36.26 |

The first 6 entries again:

| compound | Mtb glucose medium | Mtb cholesterol medium |
|---|---|---|
| `O=C(Nc1cccc(CO)n1)Nc1ccccc1Cl` | 61.65 | - |
| `Cn1ccnc1N1CCN(C(=O)C2=CCCCO2)CC1` | - | -2.131 |
| `CCn1ncnc1C(NC(=O)CSC)C1CC1` (centres undefined) | -0.6479 | - |
| `Cc1nc(NC(=O)CNC(=O)c2ccoc2)sc1C` | - | -11.66 |
| `COCCNC(=O)N1CCCN(C(=O)C(C)(C)C)CC1` | - | 11.81 |
| `O=C1CN(C(=O)CCC(=O)c2ccc(Cl)cc2)CCN1` | 1.21 | - |